Source: EP4821928A1, “BICYCLIC HETEROCYCLIC COMPOUND AND FUNGICIDE FOR AGRICULTURAL AND HORTICULTURAL USE CONTAINING SAME AS ACTIVE INGREDIENT” (dated 2026)

Columns and labels:
[1] = system: Magnaporthe grisea; assay: Rice blast disease pot test (Test Example A); details: for Rice blast disease pot test (control value): 250 ppm sprayed, 2.5 ml/pot, rice variety Sachikaze, degree of disease development 6 to 8 days after inoculation; for control value: Test Example A, rice blast disease pot test
[2] = system: Gray mold fungus (Botrytis cinerea); assay: Gray mold anti-germ test (Test Example C); details: for Gray mold anti-germ test (rate of inhibition): 50 ppm/well, Czapek-dox broth, 25°C for 3 days, absorbance 600 nm; for rate of inhibition: Test Example C, gray mold anti-germ test
[3] = system: Anthracnose fungus (Glomerella cingulata); assay: Anthracnose anti-germ test (Test Example E); details: for Anthracnose anti-germ test (rate of inhibition): 50 ppm/well, Czapek-dox broth, 25°C for 3 days, absorbance 600 nm; for rate of inhibition: Test Example E, anthracnose anti-germ test
[4] = system: Fusarium blight fungus (Fusarium graminearum); assay: Fusarium blight anti-germ test (Test Example D); details: for Fusarium blight anti-germ test (rate of inhibition): 50 ppm/well, Czapek-dox broth, 25°C for 3 days, absorbance 600 nm; for rate of inhibition: Test Example D, Fusarium blight anti-germ test
[5] = system: Speckled leaf blotch fungus (Septoria tritici); assay: Speckled leaf blotch anti-germ test (Test Example F); details: for Speckled leaf blotch anti-germ test (rate of inhibition): 50 ppm/well, Czapek-dox broth, 25°C for 3 days, absorbance 600 nm; for rate of inhibition: Test Example F, speckled leaf blotch anti-germ test
[6] = system: Botrytis cinerea; assay: Tomato gray mold pot test (Test Example B); details: for Tomato gray mold pot test (control value): 250 ppm sprayed, 2.5 ml/pot, tomato variety Oogata Fukuju, degree of disease development 2 to 3 days after inoculation; for control value: Test Example B, tomato gray mold pot test

Structure (SMILES): Cc1ccc2c(ncn2C2=NC(C)(C)Oc3c(Br)cccc32)c1C
- Rice blast disease pot test (control value) [1]: L (L represents a control value or rate of inhibition of 50% or less)
- Gray mold anti-germ test (rate of inhibition) [2]: H (H represents a control value or rate of inhibition of larger than 50%)
- Anthracnose anti-germ test (rate of inhibition) [3]: H (H represents a control value or rate of inhibition of larger than 50%)
- Fusarium blight anti-germ test (rate of inhibition) [4]: H (H represents a control value or rate of inhibition of larger than 50%)
- Speckled leaf blotch anti-germ test (rate of inhibition) [5]: L (L represents a control value or rate of inhibition of 50% or less)
- Tomato gray mold pot test (control value) [6]: H (H represents a control value or rate of inhibition of larger than 50%)

Structure (SMILES): Cc1cccc2c1OC(C)(C)N=C2n1cnc2c(Cl)cccc21
- Rice blast disease pot test (control value) [1]: H (H represents a control value or rate of inhibition of larger than 50%)
- Gray mold anti-germ test (rate of inhibition) [2]: H (H represents a control value or rate of inhibition of larger than 50%)
- Anthracnose anti-germ test (rate of inhibition) [3]: H (H represents a control value or rate of inhibition of larger than 50%)
- Fusarium blight anti-germ test (rate of inhibition) [4]: L (L represents a control value or rate of inhibition of 50% or less)
- Speckled leaf blotch anti-germ test (rate of inhibition) [5]: H (H represents a control value or rate of inhibition of larger than 50%)
- Tomato gray mold pot test (control value) [6]: H (H represents a control value or rate of inhibition of larger than 50%)

Structure (SMILES): CCC1(C)N=C(c2cnn3c(C)c(C)ncc23)c2cccc(F)c2S1 (stereo not drawn)
- control value [1]: H (H represents a control value or rate of inhibition of larger than 50%)
- rate of inhibition [2]: H (H represents a control value or rate of inhibition of larger than 50%)
- rate of inhibition [3]: H (H represents a control value or rate of inhibition of larger than 50%)
- rate of inhibition [4]: H (H represents a control value or rate of inhibition of larger than 50%)
- rate of inhibition [5]: H (H represents a control value or rate of inhibition of larger than 50%)
- control value [6]: H (H represents a control value or rate of inhibition of larger than 50%)

Structure (SMILES): Cc1cccc2c1OC(C)(C)N=C2c1cnc2c(C)c(C)ccn12
- Rice blast disease pot test (control value) [1]: H (H represents a control value or rate of inhibition of larger than 50%)
- Gray mold anti-germ test (rate of inhibition) [2]: H (H represents a control value or rate of inhibition of larger than 50%)
- Anthracnose anti-germ test (rate of inhibition) [3]: H (H represents a control value or rate of inhibition of larger than 50%)
- Fusarium blight anti-germ test (rate of inhibition) [4]: H (H represents a control value or rate of inhibition of larger than 50%)
- Speckled leaf blotch anti-germ test (rate of inhibition) [5]: H (H represents a control value or rate of inhibition of larger than 50%)
- Tomato gray mold pot test (control value) [6]: H (H represents a control value or rate of inhibition of larger than 50%)

Structure (SMILES): CCCCC1(CC)N=C(c2cnn3cccc(C)c23)c2ccccc2O1 (stereo not drawn)
- control value [1]: H (H represents a control value or rate of inhibition of larger than 50%)
- rate of inhibition [2]: H (H represents a control value or rate of inhibition of larger than 50%)
- rate of inhibition [3]: H (H represents a control value or rate of inhibition of larger than 50%)
- rate of inhibition [4]: L (L represents a control value or rate of inhibition of 50% or less)
- rate of inhibition [5]: L (L represents a control value or rate of inhibition of 50% or less)
- control value [6]: H (H represents a control value or rate of inhibition of larger than 50%)

Structure (SMILES): CC(=O)C1(C)N=C(n2cnc3c(C)cccc32)c2cccc(C)c2O1 (stereo not drawn)
- Rice blast disease pot test (control value) [1]: L (L represents a control value or rate of inhibition of 50% or less)
- Gray mold anti-germ test (rate of inhibition) [2]: H (H represents a control value or rate of inhibition of larger than 50%)
- Anthracnose anti-germ test (rate of inhibition) [3]: H (H represents a control value or rate of inhibition of larger than 50%)
- Fusarium blight anti-germ test (rate of inhibition) [4]: L (L represents a control value or rate of inhibition of 50% or less)
- Speckled leaf blotch anti-germ test (rate of inhibition) [5]: L (L represents a control value or rate of inhibition of 50% or less)
- Tomato gray mold pot test (control value) [6]: H (H represents a control value or rate of inhibition of larger than 50%)

Structure (SMILES): CCCCC1(C)N=C(c2cnn3c(C)c(C)cnc23)c2cccc(F)c2O1 (stereo not drawn)
- control value [1]: H (H represents a control value or rate of inhibition of larger than 50%)
- rate of inhibition [2]: H (H represents a control value or rate of inhibition of larger than 50%)
- rate of inhibition [3]: H (H represents a control value or rate of inhibition of larger than 50%)
- rate of inhibition [4]: H (H represents a control value or rate of inhibition of larger than 50%)
- rate of inhibition [5]: H (H represents a control value or rate of inhibition of larger than 50%)
- control value [6]: H (H represents a control value or rate of inhibition of larger than 50%)

Structure (SMILES): COc1cccc2c1OC(C)(C)N=C2n1cnc2c(C)c(Cl)ccc21
- Rice blast disease pot test (control value) [1]: L (L represents a control value or rate of inhibition of 50% or less)
- Gray mold anti-germ test (rate of inhibition) [2]: H (H represents a control value or rate of inhibition of larger than 50%)
- Anthracnose anti-germ test (rate of inhibition) [3]: H (H represents a control value or rate of inhibition of larger than 50%)
- Fusarium blight anti-germ test (rate of inhibition) [4]: L (L represents a control value or rate of inhibition of 50% or less)
- Speckled leaf blotch anti-germ test (rate of inhibition) [5]: L (L represents a control value or rate of inhibition of 50% or less)
- Tomato gray mold pot test (control value) [6]: H (H represents a control value or rate of inhibition of larger than 50%)

Structure (SMILES): Cc1c(F)ccc2c1ncn2C1=NC(C)(C)Oc2cc(Br)ccc21
- Rice blast disease pot test (control value) [1]: L (L represents a control value or rate of inhibition of 50% or less)
- Gray mold anti-germ test (rate of inhibition) [2]: H (H represents a control value or rate of inhibition of larger than 50%)
- Anthracnose anti-germ test (rate of inhibition) [3]: L (L represents a control value or rate of inhibition of 50% or less)
- Fusarium blight anti-germ test (rate of inhibition) [4]: L (L represents a control value or rate of inhibition of 50% or less)
- Speckled leaf blotch anti-germ test (rate of inhibition) [5]: L (L represents a control value or rate of inhibition of 50% or less)
- Tomato gray mold pot test (control value) [6]: H (H represents a control value or rate of inhibition of larger than 50%)

Structure (SMILES): Cc1cccc2c1OC1(CCCC1)N=C2n1cnc2c(C)c(C)ccc21
- Rice blast disease pot test (control value) [1]: H (H represents a control value or rate of inhibition of larger than 50%)
- Gray mold anti-germ test (rate of inhibition) [2]: H (H represents a control value or rate of inhibition of larger than 50%)
- Anthracnose anti-germ test (rate of inhibition) [3]: H (H represents a control value or rate of inhibition of larger than 50%)
- Fusarium blight anti-germ test (rate of inhibition) [4]: L (L represents a control value or rate of inhibition of 50% or less)
- Speckled leaf blotch anti-germ test (rate of inhibition) [5]: L (L represents a control value or rate of inhibition of 50% or less)
- Tomato gray mold pot test (control value) [6]: H (H represents a control value or rate of inhibition of larger than 50%)

Structure (SMILES): Cc1ccc2c(c1)C(n1cnc3c(C)c(Cl)ccc31)=NC(C)(C)O2
- Rice blast disease pot test (control value) [1]: L (L represents a control value or rate of inhibition of 50% or less)
- Gray mold anti-germ test (rate of inhibition) [2]: H (H represents a control value or rate of inhibition of larger than 50%)
- Anthracnose anti-germ test (rate of inhibition) [3]: H (H represents a control value or rate of inhibition of larger than 50%)
- Fusarium blight anti-germ test (rate of inhibition) [4]: L (L represents a control value or rate of inhibition of 50% or less)
- Speckled leaf blotch anti-germ test (rate of inhibition) [5]: L (L represents a control value or rate of inhibition of 50% or less)
- Tomato gray mold pot test (control value) [6]: L (L represents a control value or rate of inhibition of 50% or less)

Structure (SMILES): CNC(=O)CC1(C)N=C(n2cnc3c(C)c(C)ccc32)c2ccc(C)cc2O1 (stereo not drawn)
- Rice blast disease pot test (control value) [1]: L (L represents a control value or rate of inhibition of 50% or less)
- Gray mold anti-germ test (rate of inhibition) [2]: L (L represents a control value or rate of inhibition of 50% or less)
- Anthracnose anti-germ test (rate of inhibition) [3]: L (L represents a control value or rate of inhibition of 50% or less)
- Fusarium blight anti-germ test (rate of inhibition) [4]: H (H represents a control value or rate of inhibition of larger than 50%)
- Speckled leaf blotch anti-germ test (rate of inhibition) [5]: L (L represents a control value or rate of inhibition of 50% or less)
- Tomato gray mold pot test (control value) [6]: H (H represents a control value or rate of inhibition of larger than 50%)

Structure (SMILES): Cc1cc2ncn(C3=NC4(CCCCC4)Oc4ccccc43)c2cc1C
- Rice blast disease pot test (control value) [1]: L (L represents a control value or rate of inhibition of 50% or less)
- Gray mold anti-germ test (rate of inhibition) [2]: H (H represents a control value or rate of inhibition of larger than 50%)
- Anthracnose anti-germ test (rate of inhibition) [3]: L (L represents a control value or rate of inhibition of 50% or less)
- Fusarium blight anti-germ test (rate of inhibition) [4]: H (H represents a control value or rate of inhibition of larger than 50%)
- Speckled leaf blotch anti-germ test (rate of inhibition) [5]: L (L represents a control value or rate of inhibition of 50% or less)
- Tomato gray mold pot test (control value) [6]: L (L represents a control value or rate of inhibition of 50% or less)
